{
  "source": "ChEMBL document CHEMBL1142975",
  "about": "(J Med Chem, 2007)",
  "system": "Cowpox virus",
  "assay": "Antiviral activity against cowpox virus by CPE assay",
  "assay_type": "functional, organism-based",
  "data": [
    {"smiles": "O=C(NN1C(=O)[C@@H]2C3C=CC(C4CC43)[C@@H]2C1=O)c1ccncc1", "note": "(some centres undefined)", "values": [
      {"measurement": "EC50", "value": 17.2, "unit": "µM"}
    ]},
    {"smiles": "O=C(NN1C(=O)[C@@H]2C3C=CC(C4CC43)[C@@H]2C1=O)c1cccc(Br)c1", "note": "(some centres undefined)", "values": [
      {"measurement": "EC50", "value": 0.6, "unit": "µM"}
    ]},
    {"smiles": "COc1ccc(C(=O)NN2C(=O)[C@@H]3C4C=CC(C5CC54)[C@@H]3C2=O)cc1", "note": "(some centres undefined)", "values": [
      {"measurement": "EC50", "value": "> 20", "unit": "µM"}
    ]},
    {"smiles": "O=C(NN1C(=O)[C@@H]2C3C=CC(C4CC43)[C@@H]2C1=O)c1cccnc1", "note": "(some centres undefined)", "values": [
      {"measurement": "EC50", "value": "> 20", "unit": "µM"}
    ]},
    {"smiles": "O=C(NN1C(=O)[C@@H]2C3C=CC(C4CC43)[C@@H]2C1=O)c1ccc(C(F)(F)F)cc1", "note": "(some centres undefined)", "values": [
      {"measurement": "EC50", "value": 0.6, "unit": "µM"}
    ]},
    {"smiles": "O=C(NN1C(=O)[C@@H]2C3C=CC(C4CC43)[C@@H]2C1=O)c1ccccc1Br", "note": "(some centres undefined)", "values": [
      {"measurement": "EC50", "value": "> 20", "unit": "µM"}
    ]},
    {"smiles": "O=C(NN1C(=O)[C@@H]2C3C=CC(C4CC43)[C@@H]2C1=O)c1ccc([N+](=O)[O-])cc1", "note": "(some centres undefined)", "values": [
      {"measurement": "EC50", "value": 0.15, "unit": "µM"}
    ]},
    {"smiles": "Cc1cc(C(=O)NN2C(=O)[C@@H]3C4C=CC(C5CC54)[C@@H]3C2=O)[nH]n1", "note": "(some centres undefined)", "values": [
      {"measurement": "EC50", "value": "> 20", "unit": "µM"}
    ]},
    {"smiles": "O=C(NN1C(=O)[C@@H]2C3CCC(C4CC43)[C@@H]2C1=O)c1ccc(C(F)(F)F)cc1", "note": "(some centres undefined)", "values": [
      {"measurement": "EC50", "value": 0.3, "unit": "µM"}
    ]},
    {"smiles": "O=C(NN1C(=O)[C@@H]2C3C=CC(C4CC43)[C@@H]2C1=O)c1ccccn1", "note": "(some centres undefined)", "values": [
      {"measurement": "EC50", "value": "> 20", "unit": "µM"}
    ]},
    {"smiles": "Nc1ccc(C(=O)NN2C(=O)[C@@H]3C4C=CC(C5CC54)[C@@H]3C2=O)cc1", "note": "(some centres undefined)", "values": [
      {"measurement": "EC50", "value": "> 20", "unit": "µM"}
    ]},
    {"smiles": "Cn1cccc1C(=O)NN1C(=O)[C@@H]2C3C=CC(C4CC43)[C@@H]2C1=O", "note": "(some centres undefined)", "values": [
      {"measurement": "EC50", "value": "> 20", "unit": "µM"}
    ]},
    {"smiles": "CN(C)c1ccc(C(=O)NN2C(=O)[C@@H]3C4C=CC(C5CC54)[C@@H]3C2=O)cc1", "note": "(some centres undefined)", "values": [
      {"measurement": "EC50", "value": 15.5, "unit": "µM"}
    ]},
    {"smiles": "O=C(NN1C(=O)[C@@H]2C3C=CC(C4CC43)[C@@H]2C1=O)c1ccc(Br)cc1", "note": "(some centres undefined)", "values": [
      {"measurement": "EC50", "value": 1.6, "unit": "µM"}
    ]}
  ]
}
